Positions that govern dimerization of the HIV-1 5' RNA

Reference: Ye et al. 2022, doi:10.1038/s41594-022-00746-2.

RNA: 5' end of the HIV-1 NL4-3 genome, made in vitro. Positions 1-437 read:
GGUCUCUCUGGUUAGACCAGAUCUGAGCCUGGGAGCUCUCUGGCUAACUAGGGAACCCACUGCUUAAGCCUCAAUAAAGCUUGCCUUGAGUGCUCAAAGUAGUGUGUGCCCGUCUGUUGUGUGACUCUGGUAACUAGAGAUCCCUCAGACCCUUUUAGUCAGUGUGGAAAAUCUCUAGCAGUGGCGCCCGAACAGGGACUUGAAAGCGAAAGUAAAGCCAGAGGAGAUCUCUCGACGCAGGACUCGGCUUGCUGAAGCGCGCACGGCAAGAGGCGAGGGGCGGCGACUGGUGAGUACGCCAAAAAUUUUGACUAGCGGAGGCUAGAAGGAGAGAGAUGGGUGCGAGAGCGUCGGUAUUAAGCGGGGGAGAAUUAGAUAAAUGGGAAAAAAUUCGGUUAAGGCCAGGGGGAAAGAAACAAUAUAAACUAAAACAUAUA

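Mutant RNA libraries with 1G, 2G or 3G starts, with or without cap, were folded at 37 °C for 30 min. High salt was 300 mM KCl and 5 mM MgCl2, low salt 40 mM KCl and 0.1 mM MgCl2; monomer and dimer were parted on a native gel. Mutation frequencies in the two bands give Kdimer.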

Scale: median log2 Kdimer over the changes at a position; positive = changes inhibit dimerization, negative = changes enhance it.
One numbering serves 1G, 2G and 3G.
A position is written with its base.

A389 gave 1G capped low-salt -0.04; 2G capped high-salt 0.16; 2G uncapped high-salt -0.04.
A390 gave 1G capped low-salt -0.03; 2G capped high-salt 0.02; 2G uncapped high-salt 0.05.
U391 gave 1G capped low-salt -0.01; 2G capped high-salt 0.09; 2G uncapped high-salt 0.02.
U392 gave 1G capped low-salt -0.15; 2G capped high-salt 0.08; 2G uncapped high-salt 0.12.
C393 gave 1G capped low-salt -0.17; 2G capped high-salt 0.06; 2G uncapped high-salt 0.17.
G394 gave 1G capped low-salt -0.03; 2G capped high-salt 0.02; 2G uncapped high-salt 0.13.
G395 gave 1G capped low-salt -0.06; 2G capped high-salt -0.04; 2G uncapped high-salt -0.05.
U396 gave 1G capped low-salt -0.02; 2G capped high-salt -0.04; 2G uncapped high-salt 0.11.
U397 gave 1G capped low-salt 0.04; 2G capped high-salt 0.04; 2G uncapped high-salt -0.02.
A398 gave 1G capped low-salt 0.03; 2G capped high-salt 0.07; 2G uncapped high-salt -0.02.
A399 gave 1G capped low-salt 0.01; 2G capped high-salt -0.01; 2G uncapped high-salt 0.01.
G400 gave 1G capped low-salt 0.02; 2G capped high-salt -0.01; 2G uncapped high-salt -0.03.
G401 gave 1G capped low-salt 0.01; 2G capped high-salt -0.22; 2G uncapped high-salt 0.08.
C402 gave 1G capped low-salt -0.20; 2G capped high-salt -0.01; 2G uncapped high-salt -0.12.
C403 gave 1G capped low-salt -0.18; 2G capped high-salt -0.07; 2G uncapped high-salt 0.04.
A404 gave 1G capped low-salt -0.27; 2G capped high-salt 0.01; 2G uncapped high-salt 0.13.
G405 gave 1G capped low-salt -0.16; 2G capped high-salt -0.21; 2G uncapped high-salt -0.06.
G406 gave 1G capped low-salt -0.04; 2G capped high-salt -0.22; 2G uncapped high-salt -0.11.
G407 gave 1G capped low-salt -0.06; 2G capped high-salt -0.03; 2G uncapped high-salt 0.07.
G408 gave 1G capped low-salt 0.01; 2G capped high-salt -0.05; 2G uncapped high-salt -0.06.
G409 gave 1G capped low-salt -0.09; 2G capped high-salt 0.05; 2G uncapped high-salt -0.02.
A410 gave 1G capped low-salt -0.06; 2G capped high-salt 0.03; 2G uncapped high-salt -0.02.
A411 gave 1G capped low-salt 0.06; 2G capped high-salt -0.05; 2G uncapped high-salt -0.04.
A412 gave 1G capped low-salt 0.06; 2G capped high-salt 0.07; 2G uncapped high-salt 0.03.
G413 gave 1G capped low-salt -0.14; 2G capped high-salt 0.02; 2G uncapped high-salt 0.12.
A414 gave 1G capped low-salt -0.01; 2G capped high-salt 0.00; 2G uncapped high-salt 0.01.
A415 gave 1G capped low-salt -0.02; 2G capped high-salt -0.01; 2G uncapped high-salt -0.01.
A416 gave 1G capped low-salt 0.01; 2G capped high-salt -0.02; 2G uncapped high-salt 0.00.
C417 gave 1G capped low-salt 0.06; 2G capped high-salt -0.15; 2G uncapped high-salt 0.00.
A418 gave 1G capped low-salt 0.01; 2G capped high-salt 0.16; 2G uncapped high-salt 0.17.
A419 gave 1G capped low-salt 0.02; 2G capped high-salt 0.03; 2G uncapped high-salt 0.00.
U420 gave 1G capped low-salt -0.06; 2G capped high-salt 0.02; 2G uncapped high-salt 0.10.
A421 gave 1G capped low-salt 0.08; 2G capped high-salt 0.06; 2G uncapped high-salt 0.07.
U422 gave 1G capped low-salt -0.12; 2G capped high-salt 0.03; 2G uncapped high-salt 0.11.
A423 gave 1G capped low-salt -0.07; 2G capped high-salt 0.26; 2G uncapped high-salt 0.06.

A selection of 5 entries from above:

- G400 -> 1G capped low-salt 0.02; 2G capped high-salt -0.01; 2G uncapped high-salt -0.03
- G394 -> 1G capped low-salt -0.03; 2G capped high-salt 0.02; 2G uncapped high-salt 0.13
- U420 -> 1G capped low-salt -0.06; 2G capped high-salt 0.02; 2G uncapped high-salt 0.10
- A423 -> 1G capped low-salt -0.07; 2G capped high-salt 0.26; 2G uncapped high-salt 0.06
- A404 -> 1G capped low-salt -0.27; 2G capped high-salt 0.01; 2G uncapped high-salt 0.13